Values quoted from earlier work, collected in patent US11082386B2, “2′-fluoro-6′-methylene carbocyclic nucleosides and methods of treating viral infections” (UNIVERSITY OF GEORGIA RESEARCH FOUNDATION, INC., priority 2009, dated 2021).
Like-named read-outs stand apart in the source and are kept apart here.

Test system: HBV
Conditions: cited from earlier work; for probability of resistance: patients with pre-existing lamivudine-resistant mutations

Row | Structure (SMILES) | rate of resistance (1 year therapy, HBeAg-postive patients) | rate of resistance (2 years) | rate of resistance (5 years treatment) [%] | probability of resistance (1 year) [%] | probability of resistance (5 years) [%]
1 | Cc1cn([C@@H]2C[C@@H](O)[C@H](CO)O2)c(=O)[nH]c1=O [Telbivudine, telbivudine] | around 5% | 22% | – | – | –
2 | Nc1ncnc2c1ncn2CCOCP(=O)(O)O [adefovir, reference compound] | – | about 3% | 29 | – | –
3 | C=C1[C@H](CO)[C@@H](O)C[C@@H]1n1cnc2c(=O)[nH]c(N)nc21 [entecavir] | – | – | – | 1 | 51
